Anti-infective test results gathered from many reports (values: NIAID ChemDB through PubChem).

Common to all: tests in culture; agent: HIV-2; method: syncytia; measure: EC50

ECn: concentration that inhibits the pathogen or its effect by n%.

Cc1ccc(C)c(CS(=O)(=O)c2ccccn2)c1 ; cell line: CEM ; strain: ROD ; result: ≥20 µg/mL
O=C(c1cccc(F)c1)c1ccc2c(c1)oc(=O)n2CCN1CCCCC1 ; cell line: CEM ; strain: ROD ; result: ≥5.1 µg/mL
CC(C)(C)C(=O)OC[C@@H]1C=C[C@H](n2cc(F)c(=O)[nH]c2=O)O1 ; cell line: CEM + CEM/0 ; strain: ROD ; result: >10 µM
Cc1ccccc1C(c1ccccc1)S(=O)(=O)c1cccc[n+]1[O-] ; cell line: CEM ; strain: ROD ; result: >20 µg/mL
NC12CC3CC(CC(C3)C1C(=O)c1ccccc1C(=O)O)C2 ; cell line: CEM ; strain: ROD ; result: >100 µg/mL
CC(=O)n1c(=O)sc2cc(C(=O)c3cccc(F)c3)ccc21 ; cell line: CEM ; strain: ROD ; result: 8 µg/mL
COC(=O)C(C)NP(=O)(OC[C@@H]1C=C[C@H](n2cc(F)c(=O)[nH]c2=O)O1)Oc1ccccc1 ; cell line: CEM + CEM TK- ; strain: ROD ; result: 100 µM
Cc1cccc(C)c1NC(=O)c1ccc([N+](=O)[O-])cc1 ; cell line: CEM ; strain: ROD ; result: >29.3 µM
Nc1ccc(C(=O)c2ccc3[nH]c(=O)oc3c2)cc1 ; cell line: CEM ; strain: ROD ; result: >40 µg/mL
CCOc1cccnc1SCc1ccccc1 ; cell line: CEM ; strain: ROD ; result: 43 µg/mL
O=C1NC[C@@H]2C34CC5CC(CC(C5)[C@H]3[C@]2(O)c2ccccc21)C4 ; cell line: CEM ; strain: ROD ; result: >20 µg/mL
COc1cccnc1SCc1ccccc1 ; cell line: CEM ; strain: ROD ; result: >20 µg/mL
Cc1cccc(C)c1N1C(=O)c2ccc(N)cc2C1=O ; cell line: CEM ; strain: ROD ; result: >30 µM
COC(=O)C(C)NP(=O)(OC[C@@H]1C=C[C@H](n2cc(Cl)c(=O)[nH]c2=O)O1)Oc1ccccc1 ; cell line: CEM + CEM/0 ; strain: ROD ; result: 0.95 µM
CCOc1ccccc1CS(=O)c1cccc[n+]1[O-] ; cell line: CEM ; strain: ROD ; result: >4 µg/mL
O=C1c2ccccc2C(=O)N1CCC1C2CC3CC(C2)CC1C3 ; cell line: CEM ; strain: ROD ; result: >4 µg/mL
Cc1ccc(C)c(C(C)(Cl)S(=O)(=O)c2cccc[n+]2[O-])c1 ; cell line: CEM ; strain: ROD ; result: >4 µg/mL
O=C1c2ccccc2C(=O)N1[C@H]1CC2CC3CC(C2)C1C3 ; cell line: CEM ; strain: ROD ; result: >4 µg/mL
O=C1c2ccccc2C(=O)N1C/C=C/Cn1cnc2c(Cl)ncnc21 ; cell line: CEM ; result: >100 µM
CC(=O)n1c(=O)sc2cc(C(=O)c3ccccc3)ccc21 ; cell line: CEM ; strain: ROD ; result: 4.6 µg/mL
O=C1c2ccccc2C(=O)N1CC1OC1CBr ; cell line: CEM ; result: >20 µM
CN(C)c1ccnc(SCc2ccc(Cl)cc2)c1C#N ; cell line: CEM ; strain: ROD ; result: >20 µg/mL
O=C(c1ccc2[nH]c(=O)oc2c1)c1ccccc1F ; cell line: CEM ; strain: ROD ; result: >8 µg/mL
Cc1cccc(C)c1N1C(=O)c2ccc(C(=O)O)cc2C1=O ; cell line: CEM ; strain: ROD ; result: >133 µM
COC(=O)[C@H](C)NP(=O)(OC[C@@H]1C=C[C@H](n2cc(C)c(=O)[nH]c2=O)O1)Oc1ccccc1 ; cell line: CEM + CEM/0 ; strain: ROD ; result: 0.2 µM
Cc1ccccc1CS(=O)c1cccc[n+]1[O-] ; cell line: CEM ; strain: ROD ; result: 6 µg/mL
O=C1c2ccccc2C(=O)N1CCCC1C2CC3CC(C2)CC1C3 ; cell line: CEM ; strain: ROD ; result: >4 µg/mL
NC12CC3CC(CC(C3)C1)C2 ; cell line: CEM ; strain: ROD ; result: >662 µM
Cc1ccc[n+]([O-])c1S(=O)(=O)C(C)c1ccccc1Cl ; cell line: CEM ; strain: ROD ; result: >20 µg/mL
O=C1c2ccccc2C(=O)N1C/C=C/Cn1cc(C(F)(F)F)c(=O)[nH]c1=O ; cell line: CEM ; result: >100 µM
CCCCCCCC(Sc1cccc[n+]1[O-])c1cc(C)c(C)c(C)c1 ; cell line: CEM ; strain: ROD ; result: >20 µg/mL
O=C1c2ccccc2C(=O)N1C/C=C\Cn1cc(F)c(=O)[nH]c1=O ; cell line: CEM ; result: >100 µM
c1ccc(CSc2ccccn2)cc1 ; cell line: CEM ; strain: ROD ; result: >20 µg/mL
O=C1c2ccccc2C(=O)N1[C@@H]1CC2CC3CC(C2)C1C3 ; cell line: CEM ; strain: ROD ; result: >4 µg/mL
CC(C)(C)C(=O)OC[C@@H]1C=C[C@H](n2cc(I)c(=O)[nH]c2=O)O1 ; cell line: CEM + CEM TK- ; strain: ROD ; result: >50 µM
O=C(c1cccc(Br)c1)c1ccc2[nH]c(=O)oc2c1 ; cell line: CEM ; strain: ROD ; result: >8 µg/mL
Cc1ccc(CS(=O)(=O)c2c(C)ccc[n+]2[O-])c(C)c1 ; cell line: CEM ; strain: ROD ; result: ≥20 µg/mL

Neighbouring rows are from separate reports.